The text below walks through data of publication PMC5557811 (Scientific Reports, 2017).

Assay [1] concerns iron-sulfur subunit (SdhB) of succinate–coenzyme Q reductase (SQR). Nature of the assay: Yeast two-hybrid assay, F. graminearum cDNA library. Conditions: pGBKT7::Mtk bait; selection on DDO/X/A, then QDO/X/A.
The test system of the next assay is SdhB. Nature of the assay: Fluorescent two-hybrid (F2H) assay in BHK-21 cells. Conditions: 24 h after co-transfection.
A further assay deals with Fusarium graminearum. Conditions: transgenic barley plants against F. graminearum; cited from earlier work.

For metchnikowin, in assay [1], the “interaction with SdhB in yeast two-hybrid screen” value is recorded as “a specific interaction”. In the assay on SdhB, the “number of cells supporting the interaction” value is recorded as “low”. In addition, the “co-localization of Mtk-GFP and SdhB-RFP spots in nucleus” value in the assay with SdhB (fluorescence microscopy) is recorded as “co-localization”. Moreover, the “resistance of transgenic barley plants expressing Mtk” value in the assay on Fusarium graminearum is reported as “resistance”.
